Experimental data reported in patent US20240132578A1.

B1: 5145_B14 (PGT-127) (antibody, V domains shown)
VH: QPQLQESGPGLVEASETLSLTCTVSGDSTGRCNYFWGWVRQPPGKGLEWIGSLSHCRSYYNTDWTYHNPSLKSRLTISLDTPKNQVFLRLTSVTAADTATYYCARFGGEVLVYRDWPKPAWVDLWGRGTLVVTVSS
VL: QSALTQPPSASGSPGQSITISCTGTSNNFVSWYQQYPGKAPKLVIYEVNKRPSGVPDRFSGSKSGSTASLTVSGLQADDEGVYYCSSLVGNWDVIFGGGTKLTVL
B2: 4995_P16 (PGT-145) (antibody, V domains shown)
VH: QVQLVQSGAEVKKPGSSVKVSCKASGNSFSNHDVHWVRQATGQGLEWMGWMSHEGDKTGLAQKFQGRVTITRDSGASTVYMELRGLTADDTAIYYCLTGSKHRLRDYFLYNEYGPNYEEWGDYLATLDVWGHGTAVTVSS
VL: EVVITQSPLFLPVTPGEAASLSCKCSHSLQHSTGANYLAWYLQRPGQTPRLLIHLATHRASGVPDRFSGSGSGTDFTLKISRVESDDVGTYYCMQGLHSPWTFGQGTKVEIK
B3: 5147_N06 (PGT-130) (antibody, V domains shown)
VH: QVQLQESGPGLVKPAETLSLTCSVSGESINTGHYYWGWVRQVPGKGLEWIGHIHYTTAVLHNPSLKSRLTIKIYTLRNQITLRLSNVTAADTAVYHCVRSGGDILYYYEWQKPHWFSPWGPGIHVTVSS
VL: QSALTQPPSASGSLGQSVTISCNGTSSDIGGWNFVSWYQQFPGRAPRLIIFEVNKRPSGVPGRFSGSKSGNSASLTVSGLQSDDEGQYFCSSLFGRWDVVFGGGTKLTVL
B4: 5343_B08 (PGT-135) (antibody, V domains shown)
VH: QLQMQESGPGLVKPSETLSLSCTVSGDSIRGGEWGDKDYHWGWVRHSAGKGLEWIGSIHWRGTTHYKESLRRRVSMSIDTSRNWFSLRLASVTAADTAVYFCARHRHHDVFMLVPIAGWFDVWGPGVQVTVSS
VL: EIVMTQSPDTLSVSPGETVTLSCRASQNINKNLAWYQYKPGQSPRLVIFETYSKIAAFPARFVASGSGTEFTLTINNMQSEDVAVYYCQQYEEWPRTFGQGTKVDIK
B5: 4858_P08 (PGT-123) (antibody, V domains shown)
VH: QLHLQESGPGLVKPPETLSLTCSVSGASINDAYWSWIRQSPGKRPEWVGYVHHSGDTNYNPSLKRRVTFSLDTAKNEVSLKLVDLTAADSATYFCARALHGKRIYGIVALGELFTYFYMDVWGKGTAVTVSS
VL: SSMSVSPGETAKISCGKESIGSRAVQWYQQKPGQPPSLIIYNNQDRPAGVPERFSASPDFRPGTTATLTITNVDAEDEADYYCHIYDARGGTNWVFDRGTTLTVL
B6: 4877_D15 (PGT-122) (antibody, V domains shown)
VH: QVHLQESGPGLVKPSETLSLTCNVSGTLVRDNYWSWIRQPLGKQPEWIGYVHDSGDTNYNPSLKSRVHLSLDKSKNLVSLRLTGVTAADSAIYYCATTKHGRRIYGVVAFKEWFTYFYMDVWGKGTSVTVSS
VL: TFVSVAPGQTARITCGEESLGSRSVIWYQQRPGQAPSLIIYNNNDRPSGIPDRFSGSPGSTFGTTATLTITSVEAGDEADYYCHIWDSRRPTNWVFGEGTTLIVL

How the values were obtained:
Assay in all cases: cell-based or functional assay
[1] = target: 162-pseudovirus panel representing all major circulating HIV-1 subtypes
[2] = target: HIV-1 Env of all pseudoviruses of the cross-clade 162-pseudovirus panel (n = 162)
[3] = target: HIV-1 clade A Env pseudoviruses of the cross-clade 162-pseudovirus panel (n=26)
[4] = target: HIV-1 clade AG Env pseudoviruses of the cross-clade 162-pseudovirus panel (n=10)
[5] = target: HIV-1 clade B Env pseudoviruses of the cross-clade 162-pseudovirus panel (n=31)
[6] = target: HIV-1 clade C Env pseudoviruses of the cross-clade 162-pseudovirus panel (n=27)
[7] = target: HIV-1 clade D Env pseudoviruses of the cross-clade 162-pseudovirus panel (n=25)
[8] = target: HIV-1 clade F Env pseudoviruses of the cross-clade 162-pseudovirus panel (n=15)
[9] = target: HIV-1 clade G Env pseudoviruses of the cross-clade 162-pseudovirus panel (n=15)
[10] = target: HIV-1 clade AE Env pseudoviruses of the cross-clade 162-pseudovirus panel (n=10)

| Binder | Median IC50 (µg/ml) against viruses neutralized with an IC50 <50 µg/ml [1] [µg/mL] | Percent viruses neutralized, IC50 < 50 µg/ml [1] [%] | Median IC50 (µg/ml) against viruses neutralized with an IC50 <50 µg/ml [2] [µg/mL] | Median IC50 (µg/ml) against viruses neutralized with an IC50 <50 µg/ml (section D) [3] [µg/mL] | Median IC50 (µg/ml) against viruses neutralized with an IC50 <50 µg/ml (section D) [4] [µg/mL] | Median IC50 (µg/ml) against viruses neutralized with an IC50 <50 µg/ml (section D) [5] [µg/mL] | Median IC50 (µg/ml) against viruses neutralized with an IC50 <50 µg/ml (section D) [6] [µg/mL] | Median IC50 (µg/ml) against viruses neutralized with an IC50 <50 µg/ml (section D) [7] [µg/mL] | Median IC50 (µg/ml) against viruses neutralized with an IC50 <50 µg/ml (section D) [8] [µg/mL] | Median IC50 (µg/ml) against viruses neutralized with an IC50 <50 µg/ml (section D) [9] [µg/mL] | Median IC50 (µg/ml) against all viruses [7] [µg/mL] | Median IC50 (µg/ml) against viruses neutralized with an IC50 <50 µg/ml (section D) [10] [µg/mL] | Percent viruses neutralized, IC50 < 0.1 µg/ml [1] [%] |
| --- | --- | --- | --- | --- | --- | --- | --- | --- | --- | --- | --- | --- | --- |
| B1 | 0.08 | 50 | 0.08 | 0.16 | 0.24 | 0.36 | 7.99 | 0.18 | 0.86 | 0.67 | – | – | – |
| B2 | – | – | – | – | – | – | – | – | – | – | 10 | – | – |
| B3 | – | – | 0.18 | 4.99 | 0.07 | 0.77 | 2.67 | 3.18 | 4.84 | 28.1 | – | 0.08 | – |
| B4 | – | – | – | 1.01 | – | 2.87 | 0.28 | 1.13 | 1.26 | 1.01 | – | – | – |
| B5 | 0.03 | – | 0.03 | 0.18 | 2.27 | 0.14 | 0.08 | 0.13 | 0.74 | 0.19 | – | – | 40 |
| B6 | 0.05 | – | 0.05 | 0.33 | 0.97 | 0.15 | 0.17 | 0.11 | 5.53 | 0.65 | – | – | – |
